Experimental data taken from US11952365B2, “Anti-viral compounds” (Aligos Therapeutics, Inc., priority 2020, dated 2024).

Protein sequences, listed by entry. Tags and fused reporters are not part of them. Residues count along the entry.
UniProt P03303, 1538-1719 limits assumed: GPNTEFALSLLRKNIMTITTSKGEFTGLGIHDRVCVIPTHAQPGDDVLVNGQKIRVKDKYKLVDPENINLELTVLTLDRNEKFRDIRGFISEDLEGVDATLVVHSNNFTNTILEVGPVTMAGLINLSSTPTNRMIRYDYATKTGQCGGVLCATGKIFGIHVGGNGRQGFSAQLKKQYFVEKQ

Tests used:
HRV3C = HRV3C (Human rhinovirus 14, UniProt P03303); experiment: HRV3C protease assay (duplex, SAMDI-MS)
[1] = test system: human beta-coronavirus OC43; experiment: OC43 Coronavirus Assay in HeLa Cells; details: 6 days at 33° C.
[2] = test system: SARS-CoV-2-GHB-03021/2020; experiment: SARS-CoV-2 Infection Model in Huh7 Cells
3CLpro = 3CLpro (Severe acute respiratory syndrome coronavirus 2, UniProt P0DTD1); experiment: SARS-CoV-2 3CLpro protease assay (duplex, SAMDI-MS); assay type: biochemical
[3] = test system: SARS-CoV-2-GHB-03021/2020; experiment: SARS-CoV-2 Infection Model in VeroE6 Cells; assay type: cell-based; details: read-out: VeroE6 + CP (EC50); Vero E6-eGFP cells with MDR1-inhibitor CP-100356 0.5 μM, 4 days p.i.; numeric bounds
[4] = read-out: HRV IC50, 30 mins preincubation, bound
[5] = read-out: Huh-7 (EC50), SARS-CoV-2, day 4 p.i., MTS, numeric bounds
[6] = read-out: SARS-Cov-2 IC50, 30 mins preincubation, class symbols
[7] = read-out: SARS-Cov-2 IC50, 30 mins preincubation, bound
[8] = read-out: Huh-7 (EC50), SARS-CoV-2, day 4 p.i., MTS, class symbols

Row | Compound | IC50 (HRV3C; [4]) | EC50 ([1]; class symbols) | EC50 [2, 5] | IC50 (3CLpro; [6]) | IC50 (3CLpro; [7]) | EC50 [2, 8] | IC50 (HRV3C; read-out: HRV IC50, 30 mins preincubation, class symbols) | EC50 ([1]; bound) | EC50 [3]
1 | COc1cccc2[nH]c(C(=O)N3C[C@@H]4CCC[C@@H]4[C@H]3C(=O)N[C@@H](C[C@@H]3CCNC3=O)C(=O)C(=O)N(C)Cc3ccccc3)cc12 [Compound 109A] | > 10 µM | 1 to 10 µM | > 50 µM | 2000 to 20000 nM |  |  |  |  | 
2 | COc1cccc2[nH]c(C(=O)N3C[C@@H]4CCC[C@@H]4[C@H]3C(=O)N[C@@H](C[C@@H]3CCNC3=O)C(=O)C3CCCO3)cc12 (single isomer, unassigned) [69_B] | > 10 µM | 10 to 100 µM | > 100 µM |  | > 10000 nM |  |  |  | 
3 | COc1cccc2[nH]c(C(=O)N3C[C@@H]4CCC[C@@H]4[C@H]3C(=O)N[C@@H](C[C@@H]3CCNC3=O)C(=O)C3CCCO3)cc12 (single isomer, unassigned) [69_A] | > 10 µM | 1 to 10 µM |  | 200 to 2000 nM |  | 10 to 100 µM |  |  | 
4 | COc1cccc2[nH]c(C(=O)N3CC4CCCC4C3C(=O)NC(C=O)CC3CCNC3=O)cc12 (stereo not drawn) |  | 1 to 10 µM |  | 200 to 2000 nM |  |  | 0.2 to 2 µM |  | 
5 | COc1cccc2[nH]c(C(=O)N3C[C@@H]4CCC[C@@H]4[C@H]3C(=O)N[C@@H](C[C@@H]3CCNC3=O)C(=O)C(=O)N(C)Cc3ccccc3)cc12 [109B] | > 10 µM | 1 to 10 µM |  | 200 to 2000 nM |  | 10 to 100 µM |  |  | 
6 | COc1cccc2[nH]c(C(=O)N3C[C@@H]4CCC[C@@H]4[C@H]3C(=O)N[C@@H](C[C@H]3CC(C)(C)NC3=O)C(=O)COCc3ccccc3)cc12 | > 10 µM |  | > 50 µM |  | > 10000 nM |  |  | > 10 µM | > 50 µM

Where two headings read alike, the source gives them in different places.
